{"source": "patent US20260021071A1", "about": "“SMALL MOLECULE BROAD-SPECTRUM ANTIBIOTICS” (University of Florida Research Foundation, Incorporated, priority 2022, published 2026)", "key": {"PAO1": {"test_system": "PAO1", "assay": "Whole cell turbidity end point assay, PAO1", "type": "cell-based, Pseudomonas aeruginosa", "conditions": "read-out: PAO01 IC50; P. aeruginosa PAO1, turbidity, titration in triplicate"}, "[1]": {"test_system": "E. coli W3110 a TolC::Tn10 inclusive strain", "assay": "Whole cell turbidity end point assay, E. coli W3110", "type": "cell-based", "conditions": "read-out: W3110 IC50, titration in triplicate"}, "[2]": {"test_system": "NRS135 gram-positive S. aureus strain expressing NorA::tetM", "assay": "Whole cell turbidity end point assay, NRS135", "type": "cell-based", "conditions": "read-out: NRS135 IC50, titration in triplicate"}, "[3]": {"test_system": "PAO200 P. aeruginosa bacteria, the MexAB-OprM efflux pump minus strain of PAO1", "assay": "Whole cell live/dead turbidity growth assay, PAO200", "type": "cell-based, Pseudomonas aeruginosa", "conditions": "read-out: PAO200 IC50, titration in triplicate"}}}
{"molecule": "O=[N+]([O-])c1nonc1Cn1nnc2ccccc21", "values": [{"measurement": "IC50", "setting": "PAO1", "value": 21.8, "unit": "µM"}, {"measurement": "IC50", "setting": "[1]", "value": 36, "unit": "µM"}, {"measurement": "IC50", "setting": "[2]", "value": 38.2, "unit": "µM"}, {"measurement": "IC50", "setting": "[3]", "value": 17.6, "unit": "µM"}]}
{"molecule": "CNc1cc(Cl)c2nonc2c1[N+](=O)[O-]", "note": "[Compound 3]", "values": [{"measurement": "IC50", "setting": "PAO1", "value": 10.2, "unit": "µM"}, {"measurement": "IC50", "setting": "[1]", "value": 12.3, "unit": "µM"}, {"measurement": "IC50", "setting": "[2]", "value": 13, "unit": "µM"}, {"measurement": "IC50", "setting": "[3]", "value": 0.379, "unit": "µM"}]}
